A mixed list of measured activities; the numbers were collected in NIAID ChemDB.

Shared fields: growth or infection tests; species: Staphylococcus aureus

Lines come from different laboratories, so protocols vary. Blank or dashed fields: not listed here. A number after MIC or MFC names an inhibition level or a share of isolates.

smiles | read-out | strain or isolate | value
CC(=O)NC[C@H]1CN(c2ccc(-c3ccn(CC#N)n3)c(F)c2)C(=O)O1 | MIC | UC6685 (methicillin-resistant) | 2 µg/mL
O=C(C(O)Sc1ccccn1)N1CC=C(c2c(F)cc(N3C[C@H](COc4ccon4)OC3=O)cc2F)CC1 | MIC | 004 (methicillin quinolone-resistant) | 1 µg/mL
CCc1cc(Nc2cc(=O)n(CCCC(=O)NCc3ccco3)c(=O)[nH]2)ccc1C | MIC |  | 64 µg/mL
CC(=O)NC[C@H]1CN(c2ccc(-c3noc(C#N)n3)c(F)c2)C(=O)O1 | MIC | UC6685 (methicillin-resistant) | 16 µg/mL
CC[C@H]1OC(=O)[C@H](C)[C@@H](O[C@H]2C[C@@](C)(OC)[C@@H](O)[C@H](C)O2)[C@H](C)[C@@H](O[C@H]2O[C@@H](C)C[C@@H](N(C)C)[C@@H]2O)[C@](C)(O)C[C@@H](C)C(=O)[C@H](C)[C@@H](O)[C@]1(C)O | MIC | 33591 (erythromycin methicillin-resistant) | >64 µg/mL
O=C(O)c1cn(C2CC2)c2cc(-c3ccc4c(c3)CNC4)ccc2c1=O | MIC | FDA209P | 0.0625 µg/mL
Nc1nc(-n2cc(C(=O)O)c(=O)c3cc(F)c(N4CC(N)C4)c(Br)c32)c(F)cc1F | MIC | 209P | <0.013 µg/mL
C=CCn1cc(-c2ccc(N3C[C@H](CNC(C)=O)OC3=O)cc2F)cn1 | MIC | UC9213 (methicillin-susceptible) | 4 µg/mL
CC1NCc2ccc(-c3c(F)cc4c(=O)c(C(=O)O)cn(C5CC5)c4c3OC(F)F)cc21 | MIC | FDA209P | 0.125 µg/mL
CCCCCCCCCCCC[N+](C)(C)COCCC(C)C | MBC | ATCC 6538 | 7.14 µM
CC[C@H]1OC(=O)[C@@](C)(F)C(=O)[C@H](C)[C@@H](O[C@@H]2O[C@H](C)C[C@H](N(C)C)[C@H]2O)[C@@]2(C)C[C@@H](C)C(=NC(C)=O)[C@H](C)[C@@H](OC/C(=N\OCc3ccc(C(N)=O)s3)CO2)[C@]1(C)O | MIC | 27660 (erythromycin A -resistant) | 0.13 µg/mL
Nc1nc(-n2cc(C(=O)O)c(=O)c3cc(F)c(N4CC(O)C4)c(F)c32)c(F)cc1F | MIC | 209P | 0.025 µg/mL
CC(=O)NC[C@H]1CN(c2ccc(-c3noc(C(F)(F)F)n3)c(F)c2)C(=O)O1 | MIC | UC6685 (methicillin-resistant) | 16 µg/mL
CCc1cc(Nc2cc(=O)n(CCCC(=O)N(C)Cc3ccco3)c(=O)[nH]2)ccc1C | MIC |  | 8 µg/mL
CC[C@H]1OC(=O)[C@H](C)C(=O)[C@H](C)[C@@H](O[C@@H]2O[C@H](C)C[C@H](N(C)C)[C@H]2O)[C@@]2(C)C[C@@H](C)C(=NC(C)=O)[C@H](C)[C@@H](OC/C(=N\OCc3ccc(-c4cccc(N)n4)s3)CO2)[C@]1(C)O | MIC | 33591 (erythromycin methicillin-resistant) | 16 µg/mL
COc1c(-c2ccc3c(c2)C(C)NC3)ccc2c(=O)c(C(=O)O)cn(C3CC3)c12 | MIC | FDA209P | 0.0625 µg/mL
CC(=O)NC[C@H]1CN(c2ccc(-c3ccn[nH]3)c(F)c2)C(=O)O1 | MIC | UC6685 (methicillin-resistant) | 1 µg/mL
CC(=O)NC[C@H]1CN(c2ccc3c(c2)OCc2nccn2-3)C(=O)O1 | MIC | 44 (25508) | 0.5 µg/mL
CC(=O)NC[C@H]1CN(c2ccc(-c3ccn(C)n3)c(F)c2)C(=O)O1 | MIC | UC6685 (methicillin-resistant) | 4 µg/mL
CC[C@H]1OC(=O)[C@H](C)C(=O)[C@H](C)[C@@H](O[C@@H]2O[C@H](C)C[C@H](N(C)C)[C@H]2O)[C@@]2(C)C[C@@H](C)C(=NC(C)=O)[C@H](C)[C@@H](OC/C(=N\OCC#Cc3ccc(N)nc3)CO2)[C@]1(C)O | MIC | 25923 (erythromycin-susceptible) | 0.13 µg/mL
CC1NCc2cc(-c3c(F)cc4c(=O)c(C(=O)O)cn(C5CC5)c4c3OC(F)F)ccc21 | MIC | FDA209P | 0.0313 µg/mL
CCCCCCCCCCCC[N+](C)(C)COCCC(C)CCCC(C)C | MBC | ATCC33592 | 23.8 µM
O=C(O)c1cn(C2CC2)c2c(OC(F)F)c(-c3ccc4c(c3)CNC4)ccc2c1=O | MIC | FDA209P | 0.0625 µg/mL
CC[C@H]1OC(=O)[C@H](C)C(=O)[C@H](C)[C@@H](O[C@@H]2O[C@H](C)C[C@H](N(C)C)[C@H]2O)[C@@]2(C)C[C@@H](C)C(=NC(C)=O)[C@H](C)[C@@H](OC/C(=N\Oc3ccc(-c4nccs4)nc3)CO2)[C@]1(C)O | MIC | 27660 (erythromycin-resistant) | 0.13 µg/mL
CCCCCCCCCCCC[N+](C)(C)COCCCCCCCCCCC | MBC | ATCC33592 | 115 µM
Nc1nc(-n2cc(C(=O)O)c(=O)c3cc(F)c(N4CC(O)C4)c(Br)c32)c(F)cc1F | MIC | 209P | 0.39 µg/mL
CC[C@H]1OC(=O)[C@@](C)(F)C(=O)[C@H](C)[C@@H](O[C@@H]2O[C@H](C)C[C@H](N(C)C)[C@H]2O)[C@@]2(C)C[C@@H](C)C(=NC(C)=O)[C@H](C)[C@@H](OC/C(=N/OCc3ccc(-c4cccc(N)n4)s3)CO2)[C@]1(C)O | MIC | 27660 (erythromycin A -resistant) | 0.25 µg/mL
COc1c(N2CCNC(C)C2)c(F)cc2c(=O)c(C(=O)O)cn(C3CC3)c12 | MIC | 209P | 0.05 µg/mL
CCCCCCCCCCCCOC[N+](C)(C)CCCCCCCC | MBC | ATCC 6538 | 25.5 µM
CC(=O)NC[C@H]1CN(c2ccc(-c3cccs3)c(F)c2)C(=O)O1 | MIC | UC6685 (methicillin-resistant) | 0.5 µg/mL
CCCCCCCCCCCC[N+](C)(C)COC(C)CCCCCC | MIC | ATCC33592 | 1.53 µM
CCn1cc(C(=O)O)c(=O)c2cc(F)c(N3CCNCC3)cc21 | MIC |  | 0.3 µg/mL
NCC1CCN(c2nc3c(cc2F)c(=O)c(C(=O)O)cn3C2CC2)C1 | MIC | Giorgio | 0.031 µg/mL
CC[C@H]1OC(=O)[C@@](C)(F)C(=O)[C@H](C)[C@@H](O[C@@H]2O[C@H](C)C[C@H](N(C)C)[C@H]2O)[C@@]2(C)C[C@@H](C)C(=NC(C)=O)[C@H](C)[C@@H](OC/C(=N\OCc3ccc4nc(N)sc4c3)CO2)[C@]1(C)O | MIC | 27660 (erythromycin A -resistant) | 0.13 µg/mL
O=C(C(O)Cn1cccn1)N1CC=C(c2c(F)cc(N3C[C@H](COc4ccon4)OC3=O)cc2F)CC1 | MIC | 122 (novobiocin-resistant) | 1 µg/mL
CC[C@H]1OC(=O)[C@H](C)C(=O)[C@H](C)[C@@H](O[C@@H]2O[C@H](C)C[C@H](N(C)C)[C@H]2O)[C@@]2(C)C[C@@H](C)C(=NC(C)=O)[C@H](C)[C@@H](OC/C(=N\OCc3ccc(-c4ncccn4)s3)CO2)[C@]1(C)O | MIC | 27660 (erythromycin A -resistant) | 0.13 µg/mL
CC1=NN=C(OC[C@H]2CN(c3ccc(C4=CCOCC4)c(F)c3)C(=O)O2)C1 | MIC | 004 (methicillin quinolone-resistant) | 4 µg/mL
Nc1nc(-n2cc(C(=O)O)c(=O)c3cc(F)c(N4CC[C@H](N)C4)c(F)c32)c(F)cc1F | MIC | 209P | 0.05 µg/mL
CC[C@H]1OC(=O)[C@H](C)C(=O)[C@H](C)[C@@H](O[C@@H]2O[C@H](C)C[C@H](N(C)C)[C@H]2O)[C@](C)(OC)C[C@@H](C)C(=O)[C@H](C)[C@H]2N(CCCCn3cnc(-c4cccnc4)c3)C(=O)O[C@]12C | MIC50 | 25 strains | 1 µg/mL
CC(=O)NC[C@H]1CN(c2ccc(-c3ccnn3C)c(F)c2)C(=O)O1 | MIC | UC9213 (methicillin-susceptible) | 1 µg/mL
Nc1nc(-n2cc(C(=O)O)c(=O)c3cc(F)c(N4CC(O)C4)c(Cl)c32)c(F)cc1F | MIC | 209P | 0.013 µg/mL
O=C1O[C@@H](COc2ncccn2)CN1c1ccc(C2=CCOCC2)c(F)c1 | MIC | 004 (methicillin quinolone-resistant) | 8 µg/mL
CC[C@H]1OC(=O)[C@@](C)(F)C(=O)[C@H](C)[C@@H](O[C@@H]2O[C@H](C)C[C@H](N(C)C)[C@H]2O)[C@@]2(C)C[C@@H](C)C(=NC(C)=O)[C@H](C)[C@@H](OC/C(=N\OCc3ccc(N)nc3)CO2)[C@]1(C)O | MIC | 29213 (erythromycin A-susceptible) | 0.13 µg/mL